Results of unrelated studies side by side (data: NIAID ChemDB).

All rows: growth or infection tests; species: Mycobacterium avium; endpoint: MIC

An empty or dashed field is not shown. Conditions beyond the fields shown may differ between rows. a–b is a range or a potency band.

SMILES | cells | setting | strain or isolate | read by | result
O=c1oc2ccc(Cl)cc2c(=O)n1-c1cccc(Cl)c1 | - | - | CNCTC MY330/88 | - | 8 µM
CC(C)N=c1cc2n(-c3ccc(Cl)cc3)c3ccccc3nc-2cc1Nc1ccc(Cl)cc1 | - | - | IWGMT49 | broth dilution | 0.06 µg/mL
Cc1ccn2c(C(=O)NCc3ccc(N4CCSCC4)c(F)c3)c(C)nc2c1 | - | - | 101 | resazurin | <2 µM
O=C(Nc1cccc(F)c1)c1cc(Cl)ccc1O | - | 21 d | 330/88 | broth dilution | 31 µM
Cc1ccn2c(C(=O)NCc3ccc4c(c3)CCO4)c(C)nc2c1 | - | - | 2151 | resazurin | 2–10 µM
N/C(=N\N=C\c1ccccc1)SCc1ccc(C(F)(F)F)cc1 | - | 14 d | ATCC 25291 | broth dilution | 16 µM
Cc1cn2c(C(=O)NCc3ccc(N4CCC(c5ccc(OC(F)(F)F)cc5)CC4)cc3)c(C)nc2s1 | - | - | 2151 | resazurin | <2 µM
O=C(Oc1ccc(Cl)cc1C(=O)Nc1cccc(Cl)c1)c1ccccc1 | - | 21 d | 330/88 | broth dilution | 8 µM
COc1ccc2oc(=O)n(-c3ccc(C)cc3)c(=O)c2c1 | - | - | CNCTC MY330/88 | - | 125 µM
O=C(Oc1cc(Cl)ccc1C(=O)Nc1ccc(Cl)cc1)c1ccccc1 | - | 14 d | 330/88 | broth dilution | 4 µM
CS(C)=O | - | - | A5 | resazurin | >1 µg/mL
N/C(=N\N=C\c1ccccc1)SCc1ccccc1 | - | 21 d | ATCC 25291 | broth dilution | 62.5 µM
Cc1ccn2c(C(=O)NCc3cccc(OC(F)(F)F)c3)c(C)nc2c1 | - | - | 101 | resazurin | <2 µM
O=C(Oc1cc(Cl)ccc1C(=O)Nc1ccc(F)cc1)c1ccccc1 | - | 21 d | 330/88 | broth dilution | 8 µM
N/C(=N\N=C\c1cc(Cl)ccc1O)SCc1ccc(F)cc1 | - | 14 d | ATCC 25291 | broth dilution | 32 µM
O=C(Oc1cc(Cl)ccc1C(=O)Nc1cccc(Cl)c1)c1ccccc1 | - | 21 d | 330/88 | broth dilution | 8 µM
Cc1cn2c(C(=O)NCc3ccc(N4CCN(c5ccc(C(F)(F)F)cn5)CC4)c(F)c3)c(C)nc2s1 | - | - | A5 | resazurin | >1 µg/mL
N/C(=N\N=C\c1cc(Br)ccc1O)SCc1ccc(C(F)(F)F)cc1 | - | 14 d | ATCC 25291 | broth dilution | 32 µM
CCc1nc2ccc(Cl)cn2c1C(=O)NCc1ccc(N2CCC(c3ccc(OC(F)(F)F)cc3)CC2)cc1 | - | - | 2151 | resazurin | <2 µM
O=C(Oc1cc(Cl)ccc1C(=O)Nc1cccc(Br)c1)c1ccccc1 | - | 21 d | 330/88 | broth dilution | 8 µM
Cc1ccn2c(C(=O)NCc3ccc4c(c3)CCO4)c(C(F)(F)F)nc2c1 | - | - | 101 | resazurin | <2 µM
N/C(=N\N=C\c1ccccc1O)SCc1cccc(Cl)c1 | - | 21 d | ATCC 25291 | broth dilution | 125 µM
O=c1oc2ccc(Br)cc2c(=O)n1-c1ccc(Cl)cc1 | - | - | CNCTC MY330/88 | - | 16 µM
Cc1ccn2c(C(=O)NCc3ccc(N4CCC(c5ccc(OC(F)(F)F)cc5)CC4)cc3)c(C)nc2c1 | - | - | 2151 | resazurin | <2 µM
Cc1ccc2oc(=O)n(-c3ccc(Cl)c(Cl)c3)c(=O)c2c1 | - | - | CNCTC MY330/88 | - | 16 µM
CC[C@@]1(O)OC(=O)[C@H](C)[C@@H](O[C@H]2C[C@@](C)(OC)[C@@H](O)[C@H](C)O2)[C@H](C)[C@@H](O[C@@H]2O[C@H](C)C[C@H](N(C)C)[C@H]2O)[C@](C)(OC)C[C@@H](C)C(=O)[C@H](C)[C@@H](O)[C@]1(C)O | Human monocyte-derived macrophages | - | - | agar | 32 µg/mL
N/C(=N\N=C\c1ccccc1)SCc1ccc(Br)cc1 | - | 14 d | ATCC 25291 | broth dilution | 16 µM
O=c1oc2ccc(F)cc2c(=O)n1-c1ccc(Br)cc1 | - | - | CNCTC MY330/88 | - | 16 µM

A second listing of 3 rows from above:

SMILES	cells	setting	strain or isolate	read by	result
O=c1oc2ccc(Br)cc2c(=O)n1-c1ccc(Cl)cc1	-	-	CNCTC MY330/88	-	16 µM
O=C(Oc1cc(Cl)ccc1C(=O)Nc1ccc(F)cc1)c1ccccc1	-	21 d	330/88	broth dilution	8 µM
O=c1oc2ccc(Cl)cc2c(=O)n1-c1cccc(Cl)c1	-	-	CNCTC MY330/88	-	8 µM